System: HIV-1NL4-3
Assay: In vitro selection of resistant HIV-1 variants in MT-4 cells
Format: cell-based
Conditions: GRL-09510 selection
Description: MT-4 cells (10^5/ml) were exposed to HIV-1NL4-3 (500 TCID50) and cultured in the presence of compounds at an initial concentration of its EC50 value. Viral replication was monitored by the determination of the amount of p24 produced by MT-4 cells. The supernatants were harvested on day 7 and were used to infect fresh MT-4 cells for the next round of culture in the presence of increasing concentrations of each compound. Proviral DNAs obtained from the lysates of infected cells were subjected to sequencing. This selection procedure was carried out until the drug concentration reached 5 μM as previously described[20]–[22]).

Structure (SMILES): COc1ccc(S(=O)(=O)N(CC(C)C)CC(O)C(Cc2ccccc2)NC(=O)OC2C3COC4OCC2C4C3)cc1 (stereo not shown) [GRL-09510]
- p24 concentration of selection culture supernatant, passage 8: 564 ng/mL
- p24 concentration of selection culture supernatant, passage 15: 398 ng/mL
- p24 concentration of selection culture supernatant, passage 28: 268 ng/mL
- p24 concentration of selection culture supernatant, passage 36: 265 ng/mL

Reference: publication PMC5613016, “GRL-09510, a Unique P2-Crown-Tetrahydrofuranylurethane -Containing HIV-1 Protease Inhibitor, Maintains Its Favorable Antiviral Activity against Highly-Drug-Resistant HIV-1 Variants in vitro” (Scientific Reports, 2017)
